The record followed here is patent US9625458B2, “Biosensor” (priority 2002, dated 2017).

Where a chain is given by its changes, count along the chain named. Names and notes keep the numbering of the source.

The chains are these.
B1: dipeptide BP K394C Fluorescein (conjugate)
chain: MKTLVYCSEGSPEGFNPQLFTSGTTYDASSVPLYNRLVEFKIGTTEVIPGLAEKWEVSEDGKTYTFHLRKGVKWHDNKEFKPTRELNADDVVFSFDRQKNAQNPYHKVSGGSYEYFEGMGLPELISEVKKVDDNTVQFVLTRPEAPFLADLAMDFASILSKEYADAMMKAGTPEKLDLNPIGTGPFQLQQYQKDSRIRYKAFDGYWGTKPQIDTLVFSITPDASVRYAKLQKNECQVMPYPNPADIARMKQDKSINLMEMPGLNVGYLSYNVQKKPLDDVKVRQALTYAVNKDAIIKAVYQGAGVSAKNLIPPTMWGYNDDVQDYTYDPEKAKALLKEAGLEKGFSIDLWAMPVQRPYNPNARRMAEMIQADWAKVGVQAKIVTYEWGEYLKRACDGEHQTVMMGWTGDNGDPDNFFATLFSCAASEQGSNYSKWCYKPFEDLIQPARATDDHNKRVELYKQAQVVMHDQAPALIIAHSTVFEPVRKEVKGYVVDPLGKHHFENVSIE
modifications: left off: small tags and cut ends
B2: dipeptide BP D450C Acrylodan (conjugate, UniProt P23847 29-535, looked up, variant D450C)
Dipeptide-binding protein: KTLVYCSEGSPEGFNPQLFTSGTTYDASSVPLYNRLVEFKIGTTEVIPGLAEKWEVSEDGKTYTFHLRKGVKWHDNKEFKPTRELNADDVVFSFDRQKNAQNPYHKVSGGSYEYFEGMGLPELISEVKKVDDNTVQFVLTRPEAPFLADLAMDFASILSKEYADAMMKAGTPEKLDLNPIGTGPFQLQQYQKDSRIRYKAFDGYWGTKPQIDTLVFSITPDASVRYAKLQKNECQVMPYPNPADIARMKQDKSINLMEMPGLNVGYLSYNVQKKPLDDVKVRQALTYAVNKDAIIKAVYQGAGVSAKNLIPPTMWGYNDDVQDYTYDPEKAKALLKEAGLEKGFSIDLWAMPVQRPYNPNARRMAEMIQADWAKVGVQAKIVTYEWGEYLKRAKDGEHQTVMMGWTGDNGDPDNFFATLFSCAASEQGSNYSKWCYKPFEDLIQPARATCDHNKRVELYKQAQVVMHDQAPALIIAHSTVFEPVRKEVKGYVVDPLGKHHFENVSIE
modifications: acrylodan conjugate
B3: dipeptide BP K394C Acrylodan (conjugate, UniProt P23847 29-535, looked up, variant K394C)
Dipeptide-binding protein: B2 Dipeptide-binding protein with K394C, C450D
modifications: acrylodan conjugate
B4: dipeptide BP K394C JPW4042 (conjugate, UniProt P23847 29-535, looked up, variant K394C)
Dipeptide-binding protein: B2 Dipeptide-binding protein with K394C, C450D
modifications: JPW4042 dye conjugate
B5: dipeptide BP R141C Acrylodan (conjugate, UniProt P23847 29-535, looked up, variant R141C)
Dipeptide-binding protein: B2 Dipeptide-binding protein with R141C, C450D
modifications: acrylodan label
B6: dipeptide BP R141C JPW4039 (conjugate, UniProt P23847 29-535, looked up, variant R141C)
Dipeptide-binding protein: B2 Dipeptide-binding protein with R141C, C450D
modifications: JPW4039 dye conjugate
B7: dipeptide BP R141C JPW4045 (conjugate, UniProt P23847 29-535, looked up, variant R141C)
Dipeptide-binding protein: B2 Dipeptide-binding protein with R141C, C450D
modifications: JPW4045 label
B8: dipeptide BP K394C JPW4045 (conjugate, UniProt P23847 29-535, looked up, variant K394C)
Dipeptide-binding protein: B2 Dipeptide-binding protein with K394C, C450D
modifications: JPW4045 dye conjugate
B9: dipeptide BP D450C Fluorescein (conjugate, UniProt P23847 29-535, looked up, variant D450C)
Dipeptide-binding protein: B2 Dipeptide-binding protein
modifications: fluorescein label
B10: dipeptide BP D450C NBD (conjugate, UniProt P23847 29-535, looked up, variant D450C)
Dipeptide-binding protein: B2 Dipeptide-binding protein
modifications: NBD dye conjugate
B11: dipeptide BP K394C NBD (conjugate, UniProt P23847 29-535, looked up, variant K394C)
Dipeptide-binding protein: B2 Dipeptide-binding protein with K394C, C450D
modifications: NBD conjugate
B12: dipeptide BP R141C JPW4042 (conjugate, UniProt P23847 29-535, looked up, variant R141C)
Dipeptide-binding protein: B2 Dipeptide-binding protein with R141C, C450D
modifications: JPW4042 dye label
B13: dipeptide BP K394C JPW4039 (conjugate, UniProt P23847 29-535, looked up, variant K394C)
Dipeptide-binding protein: B2 Dipeptide-binding protein with K394C, C450D
modifications: JPW4039 dye conjugate
B14: ribose BP L265C NBD (conjugate, UniProt P02925 26-296, looked up, variant L265C)
Ribose import binding protein …: KDTIALVVSTLNNPFFVSLKDGAQKEADKLGYNLVVLDSQNNPAKELANVQDLTVRGTKILLINPTDSDAVGNAVKMANQANIPVITLDRQATKGEVVSHIASDNVLGGKIAGDYIAKKAGEGAKVIELQGIAGTSAARERGEGFQQAVAAHKFNVLASQPADFDRIKGLNVMQNLLTAHPDVQAVFAQNDEMALGALRALQTAGKSDVMVVGFDGTPDGEKAVNDGKLAATIAQLPDQIGAKGVETADKVLKGEKVQAKYPVDCKLVVKQ
modifications: NBD dye conjugate
B15: ribose BP T135C Fluorescein (conjugate, UniProt P02925 26-296, looked up, variant T135C)
Ribose import binding protein …: B14 Ribose import binding protein … with T135C, C265L
modifications: fluorescein conjugate
B16: ribose BP T135C NBD (conjugate, UniProt P02925 26-296, looked up, variant T135C)
Ribose import binding protein …: B14 Ribose import binding protein … with T135C, C265L
modifications: NBD dye conjugate
B17: ribose BP T135C JPW4045 (conjugate, UniProt P02925 26-296, looked up, variant T135C)
Ribose import binding protein …: B14 Ribose import binding protein … with T135C, C265L
modifications: JPW4045 dye conjugate
B18: ribose BP T135C Acrylodan (conjugate, UniProt P02925 26-296, looked up, variant T135C)
Ribose import binding protein …: B14 Ribose import binding protein … with T135C, C265L
modifications: acrylodan conjugate
B19: ribose BP T135C JPW4042 (conjugate, UniProt P02925 26-296, looked up, variant T135C)
Ribose import binding protein …: B14 Ribose import binding protein … with T135C, C265L
modifications: JPW4042 dye conjugate

A short description of the first series: Fluorescence emission spectra without and with saturating ligand (wavelength shift, ΔIstd, ΔRmax). The note with it: emission maximum, absence of ligand. A digest of the protocol: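 Emission spectra of bPBP–fluorophore conjugates (50–1000 nM protein, 25 °C, stirred) recorded without and with saturating ligand, using fluorophore-specific excitation. Wavelength shift, ΔIstd (intensity change at the mid-point wavelength) and ΔRmax (maximal ratiometric change over enumerated band pairs, 2 nm steps, 10 nm width) derived.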
Regarding B1, the “λmax,apo (nm)” value is on record as 522.

Regarding B2, the “λmax,apo (nm)” value came out at 508.

For the molecule B3, the “λmax,apo (nm)” value worked out at 500.

As for B4, the “λmax,apo (nm)” value worked out at 638.

As to B5, the “λmax,apo (nm)” value is given as 502.

As for B6, the “λmax,apo (nm)” value is listed as 592.

For B7, the “λmax,apo (nm)” value is on record as 610.

Regarding B8, the “λmax,apo (nm)” value stood at 631.

Consider B9, for which the “λmax,apo (nm)” value was 520.

On to B10, for which the “λmax,apo (nm)” value stood at 545.

As to B11, the “λmax,apo (nm)” value is given as 542.

Take B12: the “λmax,apo (nm)” value was 629.

Consider B13, for which the “λmax,apo (nm)” value was 592.

The same series, now with this note: emission maximum, saturating ligand (ligand column).
For B1, the “λmax,sat (nm)” value amounted to 522.

In the case of B2, the “λmax,sat (nm)” value was determined as 521.

Turning to B3, the “λmax,sat (nm)” value came to 500.

For the molecule B4, the “λmax,sat (nm)” value is 644.

Consider B5, for which the “λmax,sat (nm)” value was 501.

Consider B6, for which the “λmax,sat (nm)” value turned out to be 596.

B7: the “λmax,sat (nm)” value is 617.

Take B8: the “λmax,sat (nm)” value is given as 640.

B9: the “λmax,sat (nm)” value is reported as 520.

As to B10, the “λmax,sat (nm)” value is 544.

B11: the “λmax,sat (nm)” value turned out to be 541.

Take B12: the “λmax,sat (nm)” value was 631.

With B13, the “λmax,sat (nm)” value is recorded as 598.

Staying with this series, now noted: standard intensity change, unbound vs ligand-saturated.
For the molecule B1, the ΔIstd is 0.30.

For the molecule B2, the ΔIstd was 0.06.

With B3, the ΔIstd came to 0.23.

For the molecule B4, the ΔIstd is on record as 0.06.

Turning to B5, the ΔIstd amounted to 0.06.

As for B6, the ΔIstd is 0.06.

In the case of B7, the ΔIstd came to 0.15.

Turning to B8, the ΔIstd came out at 0.01.

For B9, the ΔIstd was 0.10.

Regarding B10, the ΔIstd came out at 0.02.

With B11, the ΔIstd worked out at 0.06.

As for B12, the ΔIstd was 0.06.

As to B13, the ΔIstd is reported as 0.37.

The same series, now with this note: standard ratiometric change, unbound vs ligand-saturated.
As for B1, the ΔRmax is given as 0.21.

For B2, the ΔRmax is recorded as 1.64.

As for B3, the ΔRmax amounted to 0.90.

On to B4, for which the ΔRmax was 0.99.

For B5, the ΔRmax amounted to 0.25.

As for B6, the ΔRmax amounted to 0.69.

B7: the ΔRmax came out at 1.18.

Regarding B8, the ΔRmax is 1.07.

For the molecule B9, the ΔRmax is given as 0.04.

In the case of B10, the ΔRmax came to 0.80.

For B11, the ΔRmax stood at 0.68.

As for B12, the ΔRmax stood at 0.87.

As for B13, the ΔRmax worked out at 1.34.

Staying with this series, now noted: wavelength of emission maximum, absence of ligand.
Take B14: the “λmax,apo (nm)” value worked out at 545.

Regarding B15, the “λmax,apo (nm)” value worked out at 526.

B16: the “λmax,apo (nm)” value turned out to be 542.

Regarding B17, the “λmax,apo (nm)” value is on record as 647.

Consider B18, for which the “λmax,apo (nm)” value worked out at 518.

In the case of B19, the “λmax,apo (nm)” value came to 680.

The series is the same for the next values; noted with them: wavelength of emission maximum, saturating ligand.
On to B14, for which the “λmax,sat (nm)” value came to 540.

As to B15, the “λmax,sat (nm)” value was 523.

B16: the “λmax,sat (nm)” value is recorded as 544.

Regarding B17, the “λmax,sat (nm)” value was 664.

Regarding B18, the “λmax,sat (nm)” value was 498.

With B19, the “λmax,sat (nm)” value was found to be 674.
